From US7884199B2, “HCV NS3-NS4 protease resistance mutants” (priority 2003, dated 2011)

How the values were obtained:
Assay in all cases: FRET enzyme assay, Ki
Assay type in all cases: biochemical
[1] = target: T1, A156S mutant HCV NS3 serine protease domain (Hepatitis C virus genotype 1b, UniProt Q9WMX2, A1182S)
T1 construct: A DNA fragment encoding residues Ala^1-Ser^181 of the HCV NS3 protease (GenBank CAB46913); hexa-histidine (C); made in house; host or cells: E. coli BL21/DE3 pLysS

[2] = target: T2, A156T mutant HCV NS3 serine protease domain (Hepatitis C virus genotype 1b, UniProt Q9WMX2, A1182T)
T2 construct: A DNA fragment encoding residues Ala^1-Ser^181 of the HCV NS3 protease (GenBank CAB46913); hexa-histidine (C); made in house; host or cells: E. coli

[3] = target: T3, A156V mutant HCV NS3 serine protease domain (Hepatitis C virus genotype 1b, UniProt Q9WMX2, A1182V)
T3 construct: A DNA fragment encoding residues Ala^1-Ser^181 of the HCV NS3 protease (GenBank CAB46913); hexa-histidine (C); made in house; host or cells: E. coli

[4] = target: T4, D168A mutant HCV NS3 serine protease domain (Hepatitis C virus genotype 1b, UniProt Q9WMX2, D1194A)
T4 construct: A DNA fragment encoding residues Ala^1-Ser^181 of the HCV NS3 protease (GenBank CAB46913); hexa-histidine (C); made in house; host or cells: E. coli BL21/DE3 pLysS

[5] = target: T5, D168V mutant HCV NS3 serine protease domain (Hepatitis C virus genotype 1b, UniProt Q9WMX2, D1194V)
T5 construct: A DNA fragment encoding residues Ala^1-Ser^181 of the HCV NS3 protease (GenBank CAB46913); hexa-histidine (C); made in house; host or cells: E. coli BL21/DE3 pLysS

Substance: BILN 2061
- Ki [1]: 0.112 µM
- Ki higher than against the wild type protease [1]: 6 fold
- Ki [2]: > 1.2 µM
- Ki higher / less susceptible as compared to the wild type protease [2]: at least 63 fold
- inhibition of the protease ([2]; up to 1.2 μM BILN 2061): not inhibited; also recorded: No inhibition
- Ki [3]: > 1.2 µM
- Ki higher / less susceptible as compared to the wild type protease [3]: at least 63 fold
- inhibition of the protease ([3]; up to 1.2 μM BILN 2061): not inhibited; also recorded: No inhibition
- Ki [4]: > 1.2 µM
- less susceptible as compared to the wild type protease [4]: at least 63 fold
- inhibition of the protease ([4]; up to 1.2 μM BILN 2061): not inhibited; also recorded: No inhibition
- Ki [5]: > 1.2 µM
- less susceptible as compared to the wild type protease [5]: at least 63 fold
- inhibition of the protease ([5]; up to 1.2 μM BILN 2061): not inhibited; also recorded: No inhibition

Entries after “also recorded” stand apart in the source; their conditions may differ.
